Test results: patent US10398672B2, “Methods and compositions for targeting cancer stem cells” (Whitehead Institute for Biomedical Research, priority 2014, dated 2019)

Tested on: NAMEC cells transformed with Ras
Test: Xenograft of Ras-transformed cells into NOD/SCID mouse mammary fat pads
Assay type: in vivo
Conditions: NAMEC cells pre-treated with cholera toxin, NOD/SCID mice

## cholera toxin
  micrometastatic foci seeded in the lungs compared to untreated NAMEC cells: complete loss
  overall primary tumor size, treated versus untreated NAMEC cells: similar
